IC50 data for one molecule are collected here from ChEMBL document CHEMBL3407432, “Fused heterocycles bearing bridgehead nitrogen as potent HIV-1 NNRTIs. Part 3: optimization of [1,2,4]triazolo[1,5-a]pyrimidine core via structure-based and physicochemical property-driven approaches” (Eur J Med Chem, 2015).

Usually IC50 stands for the concentration that inhibits the measured activity by half.

Molecules are shown by their SMILES.

For the assay, the target named is Human immunodeficiency virus type 1 reverse transcriptase (Human immunodeficiency virus 1, UniProt Q72547). Kind of assay: Inhibition of HIV1 reverse transcriptase assessed as reduction in biotin-labeled dUTP incorporation into DNA after 1 hr using poly(A) x oligo(dT)15 template/primer hybrid, digoxigenin and biotin-labeled nucleotides. The method in brief: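 Recombinant HIV-1 RT, colorimetric ELISA kit. Poly(A)·oligo(dT)15 template/primer with biotin- and DIG-labelled dNTPs in lysis buffer ± inhibitor, 1 h at 37 °C. Serial five-fold dilutions tested. IC50 is the concentration halving labelled dUTP incorporation.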

As for `Cc1cc(C#N)cc(C)c1Oc1nc(Nc2ccc(C#N)cc2)nc(N)c1Br` [ETRAVIRINE], the IC50 was found to be 89 nM.
